Values from PubChem BioAssay AID1259414 (Drosophila RNAi Screening Center, 2018)
Assay: 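Fly genes that alter Wolbachia amount inside host cells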 (primary screen). System: Drosophila JW18 cells infected with Wolbachia. Knock-down reagent: long dsRNA against Drosophila genes, 0.25 µg dsRNA per well of a 384-well plate. Time to read-out: 5 days. Treatment: cells persistently infected with Wolbachia before knock-down; no added drug. Read-out: 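Automated imaging of bacterial rRNA staining divided by host cell count, reported as plate-normalised robust z-score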. Reading the numbers: Wolbachia per cell robust z: higher = more Wolbachia per host cell than the plate typical. Rule for the call: 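Hit when robust z is 1.5 or more, or -1.5 or less, in at least two of three replicates; excludes dsRNAs with several or no targets, genes not expressed in JW18 and well A1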.
In all, the deposit lists about 24,000 reagents; this is a random part of those that have a named target and a result. Over the whole deposit, about 1,210 (5%) were called active. 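Inactive calls also include excluded dsRNAs with several or no targets, genes unexpressed in JW18, and well A1, regardless of score.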 Unmarked entries are inactive. Names joined by + are all predicted targets of the reagent.

gene knocked down,amplicon,"Wolbachia per cell robust z, rep 1","Wolbachia per cell robust z, rep 2","Wolbachia per cell robust z, rep 3"
RpL32 (Ribosomal protein L32),DRSC16835,1.62 (active),1.11,1.47
RpL32 (Ribosomal protein L32),DRSC27164,2.06,0.0416,0.0537
PIG-X (Phosphatidylinositol glycan anchor biosynthesis class X),DRSC22721,0.632,-0.403,-1.02
CG15127,DRSC05802,-0.777,0.257,-0.0152
CG15127,DRSC06549,0.591,-3.71,-1.63
CG2712,DRSC18589,-0.1,0.203,-0.424
CG13321,DRSC06358,-7.11,-3.08,-0.226
CG13321,DRSC27458,0.275,-0.151,-1.79
CG17493,DRSC03798,-0.217,0.716,-5.47
CSN3 (COP9 signalosome subunit 3),DRSC11859,1.15,0.973,0.532
CSN3 (COP9 signalosome subunit 3),DRSC25919,-0.907,2.69,0.906
r (rudimentary),DRSC19813,-3.58,0.23,-0.441
r (rudimentary),DRSC19814,-0.698,1.36,0.763
r (rudimentary),DRSC39150,-2.62 (active),-3.96,-0.446
CG34193,DRSC38866,0.543,-0.566,0.611
CG32700,DRSC17857,0.369,-2.53,-0.37
CG32700,DRSC17858,0.601,0.679,0.886
Trl + CG42507,DRSC09325,-1.07,-1.89,-0.243
Trl + CG42507,DRSC40682,-2.33,-2.75,-1.34
CSN1b (COP9 signalosome subunit 1b),DRSC11108,0.0923,1.26,0.628
Uch-L5R (Uch-L5-related),DRSC19825,-1.03,-0.749,-0.835
CG16753,DRSC08489,-0.785,-1.44,-0.316
rhi (rhino),DRSC05996,-0.0515,-0.0932,0.0468
rhi (rhino),DRSC40821,0.453,0.59,-0.0473
CG42766,DRSC41425,0.657,-0.565,-1.43
Atac2 (Ada2a-containing complex component 2),DRSC02053,-0.521,-0.163,-0.27
CG17633,DRSC02631,1.23,0.644,-4.7
CG17633,DRSC29709,-1.03,1.09,-0.152
Wdr62 (WD repeat domain 62),DRSC00081,0.197,0.28,0.449
Wdr62 (WD repeat domain 62),DRSC21913,-2.93 (active),-2.09,-0.206
Wdr62 (WD repeat domain 62),DRSC36508,0.299,-0.955,0.0479
Wdr62 (WD repeat domain 62),DRSC36509,-0.0583,-1.23,-0.142
Tsp42Eh (Tetraspanin 42Eh),DRSC06190,0.487,0.689,-4.07
CG10089,DRSC09695,-0.342,0.168,-0.796
CG10089,DRSC25988,-0.158,2.79,0.0422
CG10089,DRSC41602,0.822,-1.49,0.879
whe (what else),DRSC20537,0.57,0.536,0.349
whe (what else),DRSC26236,1.39,0.252,-2.39
Vps13 (Vacuolar protein sorting 13),DRSC06817,0.495,0.0494,-7.26
Vps13 (Vacuolar protein sorting 13),DRSC29275,-1.77,-1.02,-1.32
PIG-G (Phosphatidylinositol glycan anchor biosynthesis class G),DRSC06823,0.261,-4.1,-1.4
CG43055,DRSC40544,-3.07,-0.35,-2.64
c(2)M (crossover suppressor on 2 of Manheim),DRSC01922,0.0917,1.17,0.0515
CG3611,DRSC04395,0.76,-1.49,0.59
Mes2 (Mesoderm-expressed 2),DRSC11593,-0.233,2.38,-2.65
Mes2 (Mesoderm-expressed 2),DRSC11632,0.938,1.62,1.25
CG16903,DRSC18561,0.779,1.25,1.54
LysB (Lysozyme B),DRSC08673,0.339,-0.0244,-0.488
Alp4 (Alkaline phosphatase 4),DRSC14116,1.07,0.157,-4.4
Eip63F-1 + asRNA:Eig63F-2,DRSC21446,-1.25,-1.41,-1.28
deltaCOP (Coat Protein (coatomer) delta),DRSC18760,4.74 (active),3.27,2.76
deltaCOP (Coat Protein (coatomer) delta),DRSC25961,1.26 (active),2.39,3.01
CG10147,DRSC09706,-1.89,-0.224,-1.41
CG10147,DRSC29564,0.158,0.653,0.0226
mmm (missing minor mitochondria),DRSC10208,1.22,0.469,-1.74
Act5C (Actin 5C),DRSC17723,1.83 (active),3.1,2.33
Act5C (Actin 5C),DRSC25024,1.96 (active),1.89,1.4
CG31445,DRSC14443,0.482,-0.273,0.639
CG31445,DRSC28642,0.912,0.282,0.674
CG6435,DRSC06987,-0.414,-4.75,0.494
CG31549,DRSC21688,1.02,0.756,-0.961
CG10195,DRSC02026,0.232,0.488,0.838
mthl13 (methuselah-like 13),DRSC05238,-0.82,-1.45,-0.777
CG33284,DRSC22905,0.0685,0.797,-0.182
CG33284,DRSC29777,-6.76,0.515,0.542
CG30291,DRSC03842,-1.53 (active),-3.65,-5.8
ome (omega),DRSC09322,0.441,0.826,-0.225
ome (omega),DRSC10282,-0.741,0.238,0.758
ome (omega),DRSC11380,0.093,-1.04,0.837
